The other results are listed elsewhere or left out. Potency and affinity values are given separately. Calls of active or inactive are those of the source. No rule for the calls is given here.
test: inhibition of RSV-induced cytopathic effect – HEp-2 cells, primary 10 µM value included (AID 2391); settings: at 10 µM, stronger effect = higher value

Question: Which CPE inhibition does the source give for `O=[As](O)(c1cccs1)c1cccs1` here?
Answer: The CPE inhibition was inactive: 2.2%.

Question: For `O=P1(Nc2ccc(Br)cn2)COc2ccccc2OC1`, which CPE inhibition is on record?
Answer: Its CPE inhibition is inactive: 0.2%.

Question: With `NS(=O)(=O)c1cccc(NC(=O)COC(=O)C(O)(c2ccccc2)c2ccccc2)c1` as the compound, how does the CPE inhibition read?
Answer: The CPE inhibition was inactive: 0.77%.

Question: With `Cc1nn(-c2ccccc2)c2c1P(=O)(N1CCOCC1)N(C)C(c1ccccc1)=N2` (stereo not given) as the compound, how does the CPE inhibition read?
Answer: The CPE inhibition was inactive: 1.63%.

Question: With `CC1CCC(C(C)C)C(OP(=O)(Nc2ccccn2)c2ccccc2)C1` (stereo not given) as the compound, how does the CPE inhibition read?
Answer: The CPE inhibition was inactive: -1.73%.

Question: With `Cc1ccc(C(=O)OC2CN3CCC2CC3)cc1` (stereo not given) as the compound, how does the CPE inhibition read?
Answer: Its CPE inhibition is inactive: 0.49%.

Question: Which CPE inhibition does the source give for `CN(C)C1(CNC(=O)c2ccc(S(C)(=O)=O)cc2)CCCCC1` here?
Answer: The CPE inhibition was inactive: 0.36%.

Question: With `COc1ccccc1CNC(=O)COC(=O)C(O)(c1ccccc1)c1ccccc1` as the compound, how does the CPE inhibition read?
Answer: Its CPE inhibition is inactive: -1.17%.

Question: For `CC(C)/C=N\N=C(\N)N[N+](=O)[O-]`, which CPE inhibition is on record?
Answer: Its CPE inhibition is inactive: 3.24%.

Question: For `CN(C(=O)Cc1ccc(Cl)c(Cl)c1)[C@@H]1CCCC[C@H]1N1CCCC1`, which CPE inhibition is on record?
Answer: The CPE inhibition was inactive: -2.31%.

Question: With `O=[As](O)(c1ccccc1Br)c1ccccc1Br` as the compound, how does the CPE inhibition read?
Answer: The CPE inhibition was inactive: 4.38%.

Question: With `O=P1(Nc2ccccn2)COc2ccccc2OC1` as the compound, how does the CPE inhibition read?
Answer: Its CPE inhibition is inactive: 1.48%.

Question: Which CPE inhibition does the source give for `CCOP(=O)(NC(=NC(C)c1ccccc1)NC(C)c1ccccc1)OCC` (stereo not given) here?
Answer: Its CPE inhibition is inactive: 1.89%.

Question: Which CPE inhibition does the source give for `CCOP(=O)(Nc1ccc(C)cn1)OCC` here?
Answer: Its CPE inhibition is inactive: 2.2%.

Question: Which CPE inhibition does the source give for `CN(CCCl)Cc1cc(Cl)c(NC2=NCCN2)c(Cl)c1` here?
Answer: The CPE inhibition was inactive: -1.58%.

Question: Which CPE inhibition does the source give for `Clc1n[nH]nc1-c1nn[nH][15n]1` here?
Answer: The CPE inhibition was inactive: 0.96%.

Question: Which CPE inhibition does the source give for `CC(C)(C)C(=O)NC(Sc1ncccn1)C(Cl)(Cl)Cl` (stereo not given) here?
Answer: Its CPE inhibition is inactive: 1.34%.

Question: For `Cc1ccc(NCCc2c([N+](=O)[O-])cc([N+](=O)[O-])cc2[N+](=O)[O-])cc1`, which CPE inhibition is on record?
Answer: The CPE inhibition was inactive: 14.2%.

Question: Which CPE inhibition does the source give for `Nc1cccc2c([As](=O)(O)O)cccc12` here?
Answer: The CPE inhibition was inactive: 1.59%.

Question: With `CCCOP(=S)(Nc1nc(N)cc(=O)[nH]1)OCCC` as the compound, how does the CPE inhibition read?
Answer: Its CPE inhibition is inactive: 1.89%.

Question: With `COc1cc(C2NCCC3(OCCO3)C2(C)C)cc(OC)c1OC` (stereo not given) as the compound, how does the CPE inhibition read?
Answer: The CPE inhibition was inactive: 1.49%.

Question: With `CCOP(=O)(Nc1cccc2ccccc12)OCC` as the compound, how does the CPE inhibition read?
Answer: Its CPE inhibition is inactive: 1.82%.

Question: For `O=C(OC1CN2CCC1CC2)c1ccc(Cl)cc1` (stereo not given), which CPE inhibition is on record?
Answer: Its CPE inhibition is inactive: 2.05%.

Question: For `O=[As](O)(O)c1cccnc1`, which CPE inhibition is on record?
Answer: The CPE inhibition was inactive: -0.08%.

Question: With `COc1cc(C(=O)NCC2(N3CCOCC3)CCCCC2)cc(Cl)c1OC(C)C` as the compound, how does the CPE inhibition read?
Answer: The CPE inhibition was inactive: 0.17%.

Question: With `CS(=O)(=O)c1ccc(Cl)c(NC(=O)COC(=O)C(O)(c2ccccc2)c2ccccc2)c1` as the compound, how does the CPE inhibition read?
Answer: Its CPE inhibition is inactive: 0.78%.

Question: Which CPE inhibition does the source give for `Cc1cccc(OCC(=O)OC2CN3CCC2CC3)c1` (stereo not given) here?
Answer: The CPE inhibition was inactive: 0.67%.

Question: With `O=[As](O)(c1cccc(O)c1)c1cccc(O)c1` as the compound, how does the CPE inhibition read?
Answer: Its CPE inhibition is inactive: 0.18%.

Question: With `NC(=O)Nc1ccc([As](=O)(O)O)cc1` as the compound, how does the CPE inhibition read?
Answer: Its CPE inhibition is inactive: 0.12%.

Question: For `N#CCCN(C(=O)COC(=O)C(O)(c1ccccc1)c1ccccc1)c1ccc(F)cc1`, which CPE inhibition is on record?
Answer: Its CPE inhibition is inactive: 0.51%.

Question: Which CPE inhibition does the source give for `CCOP1(=S)c2c(C)nn(CCC#N)c2N=C(c2ccc(F)cc2)N1C` (stereo not given) here?
Answer: The CPE inhibition was inactive: -1.25%.

Question: With `CN(C(=O)Cc1ccccc1)[C@@H]1CC[C@]2(CCCO2)C[C@H]1N1CCCC1` as the compound, how does the CPE inhibition read?
Answer: The CPE inhibition was inactive: -1.22%.

Question: Which CPE inhibition does the source give for `CN(C)C(=O)c1cc([N+](=O)[O-])cc2c1-c1c(cc([N+](=O)[O-])cc1[N+](=O)[O-])C2=O` here?
Answer: The CPE inhibition was inactive: -2.43%.

Question: For `CN(C(=O)Cc1ccc(Cl)c(Cl)c1)[C@H]1CC[C@@]2(CCCO2)C[C@@H]1N1CCCC1`, which CPE inhibition is on record?
Answer: The CPE inhibition was inactive: -1.91%.

Question: With `CCOP1(=S)c2c(C)nn(CCC#N)c2N=C(c2ccccc2F)N1C` (stereo not given) as the compound, how does the CPE inhibition read?
Answer: The CPE inhibition was inactive: 0.16%.

Question: Which CPE inhibition does the source give for `O=P(Nc1nccs1)(Oc1ccccc1)Oc1ccccc1` here?
Answer: Its CPE inhibition is inactive: -0.93%.

Question: With `O=P(Nc1nccs1)(c1ccccc1)c1nc2ccccc2s1` (stereo not given) as the compound, how does the CPE inhibition read?
Answer: The CPE inhibition was inactive: -0.52%.

Question: With `CS(=O)(=O)c1cc([N+](=O)[O-])c2no[n+]([O-])c2c1` as the compound, how does the CPE inhibition read?
Answer: The CPE inhibition was inactive: -0.93%.

Question: Which CPE inhibition does the source give for `Nc1ccccc1[As](=O)(O)c1ccccc1` here?
Answer: The CPE inhibition was inactive: 3.42%.

Question: For `O=C(O)COc1ccc([As](=O)(O)O)cc1[N+](=O)[O-]`, which CPE inhibition is on record?
Answer: Its CPE inhibition is inactive: 0.53%.
